Pooled drug test results. Numbers come from NIAID ChemDB, via PubChem.

Common to all: tests on isolated targets; species: HIV-1; target: Reverse transcriptase; endpoint: inhibition

Conditions beyond the fields shown may differ between rows.

structure | changes | method | tested at | strain | value
O=C(NCCc1ccccc1)Nc1nc2ccc(Cl)cc2s1 |  | nucleotide incorporation | 0.1 µg/mL |  | 12%
CCOC(=O)N1c2ccccc2C=CC1C#N |  | nucleotide incorporation | 50 µM |  | 82.9%
CC1CN(c2cc3c(cc2F)c(=O)c(C(=O)O)cn3-c2ccc3ccccc3c2)CCN1.CS(=O)(=O)O |  | ELISA | 1 µg/mL |  | 69%
CN1C(=O)c2cc(-n3ccnc3)nnc2N(C2CC2)c2ccccc21 |  |  | 33 µM |  | 0%
Cc1nc(NC(=O)NCCc2ccccc2)sc1C |  | nucleotide incorporation | 1 µg/mL |  | 39%
CCCN1C(=O)c2ccnnc2N(CCC)c2ccccc21 |  |  | 330 µM |  | 65%
CN1CCN(c2cc3c(cc2F)c(=O)c(C(=O)O)cn3-c2ccc3ccccc3c2)CC1.CS(=O)(=O)O |  | ELISA | 1 µg/mL |  | 38%
CCCCOC(=O)C(CNCc1cn([C@H]2C[C@H](n3cc(C)c(=O)[nH]c3=O)O[C@@H]2CO)nn1)C(O)c1cccc(OC)c1O |  |  | 10 µM |  | 31.4%
Cc1cccc(C)c1OCC(=O)N[C@@H](Cc1ccccc1)[C@H](O)[C@@H](O)[C@@H]1CCCN1C(=O)COc1c(C)cccc1C |  |  | 0.000001 µM |  | 75%
CCN1c2ncccc2C(=O)Nc2c(C=O)cc(OC)nc21 | RT-Y181C |  | 38 µM |  | 1%
COC(=O)/C(=C/c1cc(Br)ccc1OCc1ccccc1)CNCc1cn([C@H]2C[C@H](n3cc(C)c(=O)[nH]c3=O)O[C@@H]2CO)nn1 |  |  | 10 µM |  | -8.3%
S=C(NCCc1ccccn1)Nc1cccnn1 |  |  | 3.3 µM |  | 6%
Cc1cccc2sc(NC(=O)NCCc3ccccc3)nc12 |  | nucleotide incorporation | 0.1 µg/mL |  | 12%
CCCCN1C(=O)c2ccnnc2Oc2ccc(OC)cc21 |  | ELISA | 33 µM |  | 1%
Cc1ccc2c(c1)N(C)C(=O)c1ccnnc1N2C1CC1 |  |  | 330 µM |  | 68%
CCOC(=O)N1c2ccc(OC)cc2C=CC1C#N |  | nucleotide incorporation | 50 µM |  | 69.9%
CCCN1c2ccc(C)cc2N(C)C(=O)c2ccnnc21 |  |  | 330 µM |  | 39%
CC(CCCCC[C@H]1CCCCCC[C@@H](C)NC(N)=[NH+]1)O[Si](c1ccccc1)(c1ccccc1)C(C)(C)C.F[B-](F)(F)F |  | RT activity / radiometric | 40 µM |  | 77.6%
O=C1NC(c2c[nH]c3ccccc23)=C/C1=C1\C(=O)NC2C=CC=CC12 |  | RT activity / ELISA | 750 µM |  | 14.37%
CS(=O)(=O)O.N[C@H]1CCN(c2nc3c(cc2F)c(=O)c(C(=O)O)cn3-c2ccc3ccccc3c2)C1 |  | ELISA | 1 µg/mL |  | 63%
CCCCCCCCCC(=O)OCCCC[C@H]1CCCCCC[C@@H](C)NC(N)=[NH+]1 |  | RT activity / radiometric | 40 µM |  | 30.7%
CCN1c2ncccc2C(=O)Nc2c(COCc3ccccc3)cc(OC)nc21 | RT-Y181C |  | 26 µM |  | 1%
CCCN1C(=O)c2ccnnc2Oc2ccc(C(F)(F)F)cc21 |  | ELISA | 33 µM |  | 2%
CCCCCC(=O)OCCCC[C@H]1CCCCCC[C@@H](C)NC(N)=[NH+]1 |  | RT activity / radiometric | 40 µM |  | 12.5%
CC(=O)O[C@]1(C)/C=C/C[C@@H](C)/C=C/[C@@]2(C)CC[C@@H](C(C)(C)O)[C@@H]2[C@@H](O)C1 |  | nucleotide incorporation / radiometric | 40 µM |  | 22%
COC(=O)/C(=C/c1cc(Cl)ccc1OCc1ccccc1)CNCc1cn([C@H]2C[C@H](n3cc(C)c(=O)[nH]c3=O)O[C@@H]2CO)nn1 |  |  | 10 µM |  | 2.2%
COc1ccc2c(c1)C=CC(C#N)N2C(=O)c1ccccc1 |  | nucleotide incorporation | 50 µM |  | 36.7%
Cc1cc(C)c2c(c1)N(CC1CC1)C(=O)c1ccnnc1O2 |  | ELISA | 33 µM |  | 32%
CCCN1C(=O)c2cc(Cl)nnc2N(CCC)c2ccc(C)cc21 |  |  | 33 µM |  | 6%
S=C(NCCc1ccccn1)Nc1cnccn1 |  |  | 3.3 µM |  | 11%
CCCN1c2ccc(C)cc2N(CC)C(=O)c2cc(Cl)nnc21 |  |  | 330 µM |  | 17%
CS(=O)(=O)O.O=C(O)c1cn(-c2ccc3ccccc3c2)c2nc(N3CCNCC3)c(F)cc2c1=O |  | ELISA | 1 µg/mL |  | 50%
CCOC(=O)N1c2ccc(O)cc2C=CC1C#N |  | nucleotide incorporation | 50 µM |  | ≤30%
CN1C(=O)c2ccnnc2N(C2CC2)c2ccccc21 |  | ELISA | 330 µM |  | 72%
CCCN1c2ccccc2N(CC)C(=O)c2cc(Cl)nnc21 |  |  | 330 µM |  | 74%
O=C(NCCc1ccccc1)Nc1nc(-c2ccc(Br)cc2)cs1 |  | nucleotide incorporation | 10 µg/mL |  | 1%
CCOC(=O)CN1C(=O)c2ccnnc2Oc2cc(C)ccc21 |  | ELISA | 330 µM |  | 49%
O=C(NCCc1ccccc1)Nc1nc(C(F)(F)F)cs1 |  | nucleotide incorporation | 1 µg/mL |  | 73–75%
CCN1c2ncccc2-c2cscc2-c2ccc(Cl)nc21 |  | nucleotide incorporation | 1 µM |  | 97%
CCOC(=O)CN1C(=O)c2cc(Cl)nnc2Oc2ccccc21 |  | ELISA | 33 µM |  | 26%
CCN1c2ncc(CCc3ccccc3)cc2-c2nnsc2-c2cccnc21 |  | nucleotide incorporation | 1 µM |  | 96%
CCN1C(=O)c2ccnnc2Oc2ccc(OC)cc21 |  | ELISA | 33 µM |  | 19%
N#CC1C=Cc2ccccc2N1C(=O)C1=CC2C=CC=CC2S1 |  | nucleotide incorporation | 50 µM |  | 45.9%
CC(O)CCCCC[C@H]1CCCCCC[C@@H](C)NC(N)=[NH+]1.F[B-](F)(F)F |  | RT activity / radiometric | 10 µM |  | 0%
CCCCOC(=O)C(CNCc1cn([C@H]2C[C@H](n3cc(C)c(=O)[nH]c3=O)O[C@@H]2CO)nn1)C(O)c1cc(Br)ccc1O |  |  | 10 µM |  | 26.3%
O=C(O)CCc1ccnc2c1NC(=O)c1cccnc1N2C1CC1 | RT-Y181C |  | 8 µM |  | 1%
C[C@@H]1CCCCCC[C@H](CCCCOCc2ccccc2)[NH+]=C(N)N1 |  | RT activity / radiometric | 40 µM |  | 29.3%
CN1CCN(c2nc3c(cc2F)c(=O)c(C(=O)O)cn3-c2cccc3ccccc23)CC1 |  | ELISA | 1 µg/mL |  | 27%
CC(Br)C(=O)N1c2ccccc2C=CC1C#N |  | nucleotide incorporation | 50 µM |  | ≤30%
C/C1=C\C=C\C2(C)C=C(CO)C(C)CC23OC([O-])C(C3=O)C(O)/C=C/C2(C)C=C(C=O)C(C)CC23OC([O-])C(C3=O)C(O)/C(C)=C/C=C/C2C=C(CO)C(C)CC23OC([O-])C(C3=O)C(O)/C=C/C2(C)C=C(C=O)C(C)CC23OC([O-])C(C3=O)C1O |  | RT activity | 20 µg/mL | IIIB | 87.9%
CCN1c2ncccc2C(=O)Nc2c(Cc3ccccc3)cc(-c3cccc(OC)c3)nc21 | RT-Y181C |  | 15 µM |  | 1%
O=C(NCCc1ccccc1)Nc1nc2ccccc2s1 |  | nucleotide incorporation | 0.1 µg/mL |  | 39%

For reference, 3 entries again:

structure,changes,method,tested at,strain,value
CC1CN(c2cc3c(cc2F)c(=O)c(C(=O)O)cn3-c2ccc3ccccc3c2)CCN1.CS(=O)(=O)O,,ELISA,1 µg/mL,,69%
CC(=O)O[C@]1(C)/C=C/C[C@@H](C)/C=C/[C@@]2(C)CC[C@@H](C(C)(C)O)[C@@H]2[C@@H](O)C1,,nucleotide incorporation / radiometric,40 µM,,22%
CCCCOC(=O)C(CNCc1cn([C@H]2C[C@H](n3cc(C)c(=O)[nH]c3=O)O[C@@H]2CO)nn1)C(O)c1cc(Br)ccc1O,,,10 µM,,26.3%

a–b is a range or a potency band. An empty or dashed field is not shown. Inhibition is in % at the dose shown (toxicity tests: loss of growth or viability).